A mixed list of measured activities; the numbers were collected in NIAID ChemDB.

Shared fields: tests in culture; species: Hepatitis B virus; method: PCR; measure: EC50

a–b is a range or a potency band. ECn is the concentration giving n% inhibition of infection, replication or growth. Lines come from different laboratories, so protocols vary.

| structure | cells | result |
|---|---|---|
| Cc1c(C(=O)C(=O)NC(C)(C)c2nnco2)c(C)n(C)c1C(=O)Nc1ccc(F)c(C#N)c1 | HepG2.2.15 | 0.001–0.0099 µM |
| CCOC(=O)C1=C(CN2CC(F)(F)[C@@H]3[C@H]2CON3C[C@H](O)C(C)(C)C(=O)O)NC(c2nccs2)=N[C@H]1c1ccc(F)cc1Cl | HepG2.2.15 | 0.036 µM |
| Cn1nc2cc(NS(=O)(=O)NC(=O)C3CC3)ccc2c1C(=O)Nc1ccc(F)c(Cl)c1 | HepAD38 | >1000 µM |
| C[C@@H](NC(=O)c1c2n(c(=O)n1-c1ccc(OC3CC3)cc1)CCN(C(=O)c1ccc(Br)c(Cl)c1)C2)c1ccc(OC(F)(F)F)cc1 | HepG2.117 | 0.5–5 µM |
| CNC(=O)C(=O)N1CC[C@@H](NS(=O)(=O)c2c(F)c(C(=O)Nc3cc(F)c(F)c(F)c3)n3c2CCCC3)C1 | HepAD38 cells | 0.1–0.3 µM |
| CC1(C)CN(c2ccc(-n3c(C(=O)NCc4ccccc4)c4n(c3=O)CCN(C(=O)c3ccc(Br)c(Cl)c3)C4)cc2)CCO1 | HepG2.117 | 0.1–0.5 µM |
| CCOC(=O)C1=C(CN2CC(F)(F)[C@H]3[C@@H]2CCN3C[C@H](OC)C(C)(C)C(=O)O)NC(c2nc(C)cs2)=N[C@H]1c1cccc(F)c1C | HepG2.2.15 | 0.014 µM |
| Cn1ncc(NS(=O)(=O)c2ccc3c(C(=O)Nc4ccc(F)c(Cl)c4)n(C)nc3c2)c1Cl | HepAD38 | 100–1000 µM |
| Cn1cc(S(=O)(=O)N[C@@H]2CCN(C(=O)C(=O)NC3COC3)C2)c(F)c1C(=O)Nc1cc(F)c(F)c(F)c1 | HepAD38 cells | <0.1 µM |
| C=C[C@](C)(CO)NC(=O)C(=O)c1c(C)c(C(=O)Nc2ccc(F)c(C#N)c2)n(C)c1C | HepG2.2.15 | 0.001–0.0099 µM |
| COC(=O)C1=C(CN2CC(F)(F)[C@@H]3[C@H]2CON3CC(F)(F)C(C)(C)C(=O)O)NC(c2nccs2)=N[C@H]1c1ccc(F)c(F)c1C | HepG2.2.15 | 0.014 µM |
| Cc1ncccc1-n1cc(S(=O)(=O)Nc2ccc3c(C(=O)Nc4ccc(F)c(Cl)c4)n(C)nc3c2)cn1 | HepAD38 | 100–1000 µM |
| O=C(NCc1ccccc1)c1c2n(c(=O)n1-c1ncccn1)CCN(C(=O)c1ccc(Cl)c(Cl)c1)C2 | HepG2.117 | >5 µM |
| CCOC(=O)C1=C(CN2CC(F)(F)[C@@H]3[C@H]2CON3CC[C@](C)(O)C(=O)O)NC(c2nccs2)=N[C@H]1c1ccc(F)c(F)c1Cl | HepG2.2.15 | 0.073 µM |
| Cn1nc2cc(NS(=O)(=O)c3cnn(C4CNC4)c3)ccc2c1C(=O)Nc1ccc(F)c(Cl)c1 | HepAD38 | 100–1000 µM |
| COC(=O)C1=C(CN2CC(F)(F)[C@H]3[C@@H]2CCN3CC[C@@](C)(O)C(=O)O)NC(c2nccs2)=N[C@H]1c1ccc(F)c(F)c1Cl | HepG2.2.15 | 0.038 µM |
| C#C[C@](C)(CO)NC(=O)C(=O)c1c(C)c(C(=O)Nc2ccc(F)c(C#N)c2)n(C)c1C | HepG2.2.15 | 0.001–0.0099 µM |
| Cn1cc(S(=O)(=O)Nc2cc3nn(C)c(C(=O)Nc4ccc(F)c(Cl)c4)c3cc2F)cn1 | HepAD38 | >1000 µM |
| C#CC(CC)(CC)NC(=O)C(=O)c1c(C)c(C(=O)Nc2ccc(F)c(F)c2)n(C)c1C | HepG2.2.15 | 0.001–0.0099 µM |
| CNS(=O)(=O)N[C@@H]1CCN(S(=O)(=O)c2cn(C)c(C(=O)Nc3cc(F)c(F)c(F)c3)c2F)C1 | HepAD38 cells | 0.3–1 µM |
| COc1ccc(-n2c(C(=O)NCc3ccc(F)cc3)c3n(c2=O)CCN(C(=O)c2ccc(Br)c(Cl)c2)C3)cc1 | HepG2.117 | 0.1–0.5 µM |
| CCOC(=O)C1=C(CN2CC(F)(F)[C@@H]3[C@H]2CON3C[C@@H](OC)C(C)(C)C(=O)O)NC(c2nccs2)=N[C@H]1c1cccc(F)c1C | HepG2.2.15 | 0.0095 µM |
| Cn1nc2cc(S(=O)(=O)NC3CC3)ccc2c1C(=O)Nc1ccc(F)c(Cl)c1 | HepAD38 | <100 µM |
| COc1ccc(-n2c(C(=O)N[C@@H](CO)c3ccccc3)c3n(c2=O)CCN(C(=O)c2ccc(Br)c(Cl)c2)C3)cc1 | HepG2.117 | 0.5–5 µM |
| C[C@@H](NS(=O)(=O)Nc1ccc2c(C(=O)Nc3ccc(F)c(Cl)c3)n(C)nc2c1)c1ccccn1 | HepAD38 | 100–1000 µM |
| C[C@H]1Cn2c(c3n(c2=O)C[C@@H](F)CN(Cc2ccccc2)C3=O)CN1C(=O)c1ccc(Br)c(Cl)c1 | HepG2.117 | <0.1 µM |
| Cn1nc2ccc(NCc3ccccc3)cc2c1C(=O)Nc1ccc(F)c(Cl)c1 | HepAD38 | >1000 µM |
| CCNC(=O)C(=O)N1CC[C@@H](NS(=O)(=O)c2cn(C)c(C(=O)Nc3ccc(F)c(F)c3)c2F)C(C)(C)C1 | HepAD38 cells | <0.1 µM |

Again, the opening 2 rows:

structure,cells,result
Cc1c(C(=O)C(=O)NC(C)(C)c2nnco2)c(C)n(C)c1C(=O)Nc1ccc(F)c(C#N)c1,HepG2.2.15,0.001–0.0099 µM
CCOC(=O)C1=C(CN2CC(F)(F)[C@@H]3[C@H]2CON3C[C@H](O)C(C)(C)C(=O)O)NC(c2nccs2)=N[C@H]1c1ccc(F)cc1Cl,HepG2.2.15,0.036 µM